The test has as its target SARS-COV-2 B.1.1.7 RBD (SARS-CoV-2 B.1.1.7 (Alpha)). The experiment in a line: multiplex sVNT RBD-ACE2 blocking.

This passage reports IC50 results from patent publication US20240254204A1 (published 2024).

By IC50 is commonly meant the concentration at which inhibition is half-maximal. Higher therefore signals a need for much substance.

B1: Antibody 13 (SS6V13-F1) (antibody, V domains shown)
VH: QVQLQESGPGLVKPSETLSLTCSVSGVSILGSYWGWIRQPPGTGLQWIGYIYFSENTNYNPSLQSRVTMSLDTSKNLLSLKLSSVTAADTAVYYCARGGGYLETGPFDSWGQGTLVTVSS
VL: DIVMTQSPLSLPVTPGEPASISCRSSQGLVQSNGYNYLAWYLQKPGQSPQLLIYLGSNRASGVPDRFSGSGSGTDFTLKISRVEAEDVGVYYCMQGLQTPGTFGQGTRLEIK
Take B1: the IC50 is 0.092 µg/mL.

B2: Antibody 11 (SS6V11-E7) (antibody, V domains shown)
VH: QVQLQESGPGLVKPSETLSLTCTVSGGFIGPHYWSWVRQPPGKGLEWIGYIYISGSTNYNPSLKSRLTISVDMSKSQFSLTLSSATAADTAVYYCARGGGYLETGPFEYWGQGTLVTVSS
VL: DIVMTQSPLSLPVTPGEPASISCRSSQSLLQNNGYNYLAWYLQKPGQSPQLLIYLSSTRASGVPDRFSGSGSGTDFTLKISRVEAEDVGVYYCMQSLQIPGTFGQGTRLEIK
In turn, B2 yielded a 50% inhibitory concentration (IC50) of 0.084 µg/mL.
